Series [1] deals with T1, PhoB (Pseudomonas aeruginosa PAO1) (UniProt P23620).
T1 sequence (looked up, limits assumed): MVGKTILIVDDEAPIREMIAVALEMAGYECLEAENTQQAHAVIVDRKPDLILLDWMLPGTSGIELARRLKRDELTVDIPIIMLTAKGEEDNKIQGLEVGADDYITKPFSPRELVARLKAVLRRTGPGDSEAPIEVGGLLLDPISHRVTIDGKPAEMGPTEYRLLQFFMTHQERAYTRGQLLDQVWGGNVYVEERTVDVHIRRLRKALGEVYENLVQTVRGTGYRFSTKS
In words: EMSA. Particulars: positive control; LightShift chemiluminescent EMSA kit; 50 ng/ul poly(dIdC), 10 nM biotin-labeled DNA, 20 min at room temperature; 5% native TBE PAGE; proteins stored in 50 mM NaH2PO4; recombinant protein; protein details: C-terminal His (pET-28b, NcoI-XhoI); label: biotin 3'-end. For orientation: Mobility shift assays separate free from complexed probe on a gel.

The target in series [2] is T2, LasR (Pseudomonas aeruginosa PAO1) (UniProt P25084).
T2 sequence (looked up, limits assumed): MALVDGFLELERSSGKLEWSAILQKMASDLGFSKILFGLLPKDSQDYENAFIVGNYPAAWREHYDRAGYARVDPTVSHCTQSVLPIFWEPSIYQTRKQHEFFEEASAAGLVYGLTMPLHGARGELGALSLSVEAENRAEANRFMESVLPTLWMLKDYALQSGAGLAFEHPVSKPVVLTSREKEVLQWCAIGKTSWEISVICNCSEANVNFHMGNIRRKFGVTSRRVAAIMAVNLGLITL
Description: EMSA. The following applies: 2 uM 3-oxo-C12-HSL, without PhoB; recombinant protein; protein details: C-terminal His (pET-28b); label: biotin 3'-end.

Construct, isoform or probe ends are uncertain for at least one entry. At least one verdict rests on a figure or table, not on a statement of the authors. Where a protein sequence is shown, tags need not be part of it.

On to “TATCCCAAAACCCCTGGTCAGCGATGACCGGGGGTTTTGCTTTTGCGCGCGGAAAAAGGCGTGCTTCCTCGCTTCTTTTCTCGACTGCGAATGCCGGCGGCGACTGTCACAATTGCCCTGGAAACTACCCATCCTGCATGAAACGGATGGACGGCTACCTCCCCCAGGCGGATCGAAAACGCGCTCCAGAGGGCCTCCCGGGCCCCTCCGTGAAAGGCTGGAGCCCTTGTGTTTCCAGGCTTTTAGGGGTGTGGCAGGGCTTCTCCCAAGGCTTGCGGAAAAATGTCGGAAGGCTGATGGCATTTCATCCAACTGTCATATTCCTTTCATAGAGTCTTCATGCGGCCTGACGATACTGGCCCCCGTTCCATCCAACCCCATCCTGTCCAAGGAGCAAGGC (double strand) [pstS promoter]”, for which the binding result in series [1] was “binds”.

For “TGCTCTGATCTTTTCGGACGTTTCTTCGAGCCTAGCAAGGGTCCGGGTTCACCGAAATCTATCTCATTTGCTAGTTATAAAATTATGAAATTTGCATAAATTCTTCAGCTTCCTATTTGGAGGAAGTGAAG (double strand) [lasI promoter]”, in series [2], the binding result was “binds”.
